What was measured:
[1] = molecular target: MBP-POWV-EDIII fusion protein (Powassan virus); assay: BLI; panel title printed as m65.61
[2] = molecular target: MBP-POWV-EDIII fusion protein (Powassan virus); assay: BLI; apparent KD (bivalent mAb); panel title printed as m65.61
[3] = molecular target: MBP-POWV-EDIII fusion protein (Powassan virus); assay: BLI
[4] = molecular target: MBP-POWV-EDIII fusion protein (Powassan virus); assay: BLI; apparent KD

Substance	koff [1]	Kd [2]	koff [3]	Kd [4]
mAb m61.65 (chimeric: mouse variable domains, human IgG1 constant domain) (from UniProt P01857)	0.00086 s⁻¹	3.2 nM		
mAb m158.25 (chimeric: mouse variable domains, human IgG1 constant domain) (from UniProt P01857)			0.0011 s⁻¹	
mAb m158.26 (chimeric: mouse variable domains, human IgG1 constant domain) (from UniProt P01857)			0.00089 s⁻¹	15 nM
mAb m158.36 (chimeric: mouse variable domains, human IgG1 constant domain) (from UniProt P01857)			0.00064 s⁻¹	3 nM
